Values after ≈ are worked out from the molar mass of the structure shown.
How the values were obtained:
Plasmodium falciparum [1] = test: Parasite viability index for Plasmodium falciparum Indochina W2 by [3H]hypoxanthine uptake
Plasmodium falciparum [2] = test: Inhibition of Plasmodium falciparum D6 (Sierra Leone) by [3H]hypoxanthine uptake; type: functional, organism-based

Compound | IC50 (Plasmodium falciparum [1]) [ng/mL] | IC50 (Plasmodium falciparum [2]) [ng/mL]
CCOP(=S)(OCC)OCC[C@@H]1CCC[C@@H]2CC[C@]3(C)OO[C@]21[C@@H](OC)O3 | 0.4 (≈ 0.942 nM) | 3.7 (≈ 8.72 nM)
CO[C@H]1O[C@]2(C)CC[C@H]3CCC[C@@H](CCOP(=O)(Oc4ccccc4)Oc4ccccc4)[C@]31OO2 | < 0.2 | 1.7 (≈ 3.37 nM)

Source: ChEMBL document CHEMBL1125468, “Extraordinarily potent antimalarial compounds: new, structurally simple, easily synthesized, tricyclic 1,2,4-trioxanes” (J Med Chem, 1992)
